This is an account of results in patent US8703172B2, “Sphingolipids for improvement of the composition of the intestinal flora” (Nederlandse Organizatie voor …, priority 2003, dated 2014).

The first experiment has as its system Escherichia coli 0157:H7. As to the kind of experiment: MIC on agar plates (TSA). As to conditions: Escherichia coli, 48 h, read-out: MIC, E. coli O157:H7.
What is called MIC is the least concentration at which growth counts as inhibited. Consider `CCCCCCCCCCCCCC[C@@H](O)[C@@H](O)[C@@H](N)CO` [Phytosphingosine, phytosphingosine], for which the minimum inhibitory concentration (MIC) was above 731 µg/mL.
Regarding `CC(=O)O.CCCCCCCCCCCCCCC[C@@H](O)[C@@H](N)CO` [Sphinganine, sphinganine acetate], the MIC is above 731 µg/mL.
In the case of `CCCCCCCCCCCCC/C=C/[C@@H](O)[C@@H](N)CO` [Sphingosine, sphingosine], the MIC was above 731 µg/mL.

The experiment is the same for the next values; noted with them: TSA agar plate, aerobic, 48 hours at 30° C.
Turning to `CCCCCCCCCCCCC/C=C/[C@@H](O)[C@@H](N)COP(=O)([O-])OCC[N+](C)(C)C` [Lysosphingomyelin, lysosphingomyelin], the “MIC, E. coli O157:H7” value is above 365 µg/mL.
On the same count and under the same terms, for glucosylceramide III the value was above 365 µg/mL; for sphingomyelin, above 731 µg/mL.
